# Literature values as cited in patent US4325960A, “6-Amidinopenicillanic acid derivatives including the radical of a β-lactamase inhibitor” (Leo Pharmaceutical Products Ltd. A/S (Lovens Kemiske Fabrik, priority 1979, dated 1982).
# Test system: β-lactamases
# Conditions: cited from earlier work
smiles,measurement,value
CC1(C)S[C@@H]2[C@H](Br)C(=O)N2[C@H]1C(=O)O,β-lactamase inhibition,powerful inhibitors of a wide range of β-lactamases
